PubChem BioAssay AID1259414 | Drosophila RNAi Screening Center – 2018
Screen: 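Fly genes that alter Wolbachia amount inside host cells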 (primary screen). System: Drosophila JW18 cells infected with Wolbachia. Knock-down reagent: long dsRNA against Drosophila genes, 0.25 µg dsRNA per well of a 384-well plate. Time to read-out: 5 days. Challenge: cells persistently infected with Wolbachia before knock-down; no added drug. Measurement: 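Automated imaging of bacterial rRNA staining divided by host cell count, reported as plate-normalised robust z-score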. Reading the numbers: Wolbachia per cell robust z: higher = more Wolbachia per host cell than the plate typical. Rule for the call: 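Hit when robust z is 1.5 or more, or -1.5 or less, in at least two of three replicates; excludes dsRNAs with several or no targets, genes not expressed in JW18 and well A1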.
The screen tested about 24,000 reagents; this is an unselected part of those that have a named target and a result. Of all reagents, about 1,210 (5%) are marked active. 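Inactive calls also include excluded dsRNAs with several or no targets, genes unexpressed in JW18, and well A1, regardless of score.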 Entries without a mark were called inactive.

gene | dsRNA | Wolbachia per cell robust z, rep 1 | Wolbachia per cell robust z, rep 2 | Wolbachia per cell robust z, rep 3
Dhc62B | DRSC08655 | -2.63 | 1.01 | 1.13
Jhbp7 | DRSC14408 | 0.502 | -1.48 | 0.174
Jhbp7 | DRSC25905 | 0.344 | 3.1 | 1.51
CG33095 | DRSC14441 | -0.93 | 0.615 | -0.326
HisT | DRSC05051 | 1.64 | 0.608 | 1.14
HisT | DRSC06405 | 1.45 | -0.358 | -0.199
CG11698 | DRSC14355 | -1.56 | 0.205 | -1.12
Elp6 | DRSC16571 | 0.318 | 0.865 | 0.084
CG11570 | DRSC09844 | 0.0164 | 0.323 | 0.358

Continued; the last 3 above are carried over.
gene | dsRNA | Wolbachia per cell robust z, rep 1 | Wolbachia per cell robust z, rep 2 | Wolbachia per cell robust z, rep 3
CG11698 | DRSC14355 | -1.56 | 0.205 | -1.12
Elp6 | DRSC16571 | 0.318 | 0.865 | 0.084
CG11570 | DRSC09844 | 0.0164 | 0.323 | 0.358
Task6 | DRSC16530 | -0.929 | 0.0128 | -7.29
Roc1a | DRSC18483 | -1.94 (active) | 1.85 | 5.35
Polr2H | DRSC11642 | 1.17 | 3.05 | 1.22
CG7054 | DRSC16185 | -0.316 | -0.301 | 0.239
CG7054 | DRSC26659 | 0.747 | 0.823 | -0.292
sut3 | DRSC07702 | 0.0954 | -0.684 | -0.821
sut3 | DRSC24322 | 1.25 | 1.54 | 0.812
CG6638 | DRSC10680 | -2.18 | -0.0013 | -1.24
CG6638 | DRSC24246 | -1.07 | 0.386 | 0.173
daed | DRSC00299 | -1.41 | 0.914 | 0.0988
CG12374 | DRSC06143 | -1.87 | -0.477 | -1.03
CG7492 | DRSC10855 | -1.54 | 0.817 | 0.49
Adat1 | DRSC03479 | -0.434 | 0.0663 | -4.63
Adat1 | DRSC27220 | 0.409 | -0.158 | -0.0265
Rtca | DRSC18517 | 1.13 | 0.0898 | 1.6
spas | DRSC15929 | 0.201 | -0.738 | 1.63
CG12170 | DRSC12199 | -2.53 | 0.235 | -0.131
CG12170 | DRSC41442 | -0.138 | 0.207 | -1.88
CG16781 | DRSC18117 | 0.485 | -0.955 | -1.36
CG16781 | DRSC28112 | 0.893 | 0.301 | 0.669
